Values quoted from earlier work, collected in patent publication EP0009325A1, “Erythritol cointaining anti-caries compositions” (PFIZER INC., priority 1978, dated 1980).

Details: at practical use levels; cited from earlier work

Structure (SMILES): OC[C@@H](O)[C@@H](O)CO [erythritol]
- sweetness relative to sucrose: about 60%
